Anti-infective test results gathered from many reports (values: NIAID ChemDB through PubChem).

All rows: enzyme or target tests; species: HIV-1; protein: Protease; read-out: Ki

Neighbouring rows are from separate reports. Blank or dashed fields: not listed here.

structure | strain or isolate | mutations | read by | result
CCCC[C@@H](CN[C@@H](CCCC)C(=O)N[C@@H](CCC(N)=O)C(=O)N[C@@H](CCCN=C(N)N)C(N)=O)NC(=O)[C@@H](NC(=O)[C@@H](NC(C)=O)[C@@H](C)O)[C@@H](C)CC |  |  | HPLC | 0.78 µM
CC(C)(C)OC(=O)N[C@@H](Cc1ccccc1)[C@H](O)[C@H](O)[C@H](Cc1ccccc1)NC(=O)OC(C)(C)C |  |  | fluorescence | 0.022 µM
O=C1N(Cc2ccc(CO)cc2)[C@H](COc2ccccc2)[C@H](O)[C@@H](O)[C@@H](COc2ccccc2)N1Cc1ccc(CO)cc1 | IIIB |  | fluorescence | 0.00023 µM
CC(C)[C@H](NC(=O)[C@H](CO)NC(=O)OCc1ccccc1)C(=O)N[C@@H](Cc1ccccc1)[C@@H](O)[C@H](O)[C@H](Cc1ccccc1)NC(=O)[C@@H](NC(=O)[C@H](CO)NC(=O)OCc1ccccc1)C(C)C |  |  | fluorescence | 0.00058 µM
CNC(=O)[C@@H](NC(=O)[C@H](OCc1ccccc1)[C@H](O)[C@@H](O)[C@@H](OCc1ccccc1)C(=O)N[C@H]1c2ccccc2C[C@H]1O)C(C)C |  |  |  | 0.000054 µM
COC(=O)CCCC[C@H]1[C@@H]2[C@H](CS1(=O)=O)N(Cc1cccc(Br)c1)C(=O)N2Cc1cccc(Br)c1 |  |  | HPLC | 4.1 µM
O=C1N(Cc2cccc(CO)c2)[C@H](Cc2ccccc2)[C@H](O)[C@@H](O)[C@@H](Cc2ccccc2)N1Cc1cccc(CO)c1 |  |  | fluorescence | 0.4 µM
CC(C)[C@H](NC(=O)[C@H](C)NC(=O)OCc1ccccc1)C(=O)N[C@@H](Cc1ccccc1)[C@H](O)C(=O)N1CCC[C@H]1C(=O)NC(C)(C)C |  |  | fluorescence | 0.0054 µM
O=Cc1cccc(CN2C(=O)N(Cc3cccc(C=O)c3)[C@H](Cc3ccccc3)[C@H](O)[C@@H](O)[C@H]2Cc2ccccc2)c1 | RF |  |  | 0.00044 µM
CC(C)CCCC(C)CCN1C(=O)N(CCC(C)CCCC(C)C)[C@H](Cc2ccccc2)[C@H](O)[C@@H](O)C1Cc1ccccc1 |  |  |  | 0.15 µM
CC(C)(C)OC(=O)[C@@H]1CCCN1C(=O)[C@@H](O)[C@H](Cc1ccccc1)NC(=O)[C@H](CC(N)=O)NC(=O)OCc1ccccc1 | IIIB |  | HPLC | 0.058 µM
N#CN=C1N(CC2CCCC2)[C@H](Cc2ccccc2)[C@H](O)[C@@H](O)[C@@H](Cc2ccccc2)N1CC1CCCC1 |  |  |  | 0.0011 µM
CC(C)(C)OC(=O)N[C@@H](COc1ccccc1)[C@@H](O)[C@H](O)[C@H](COc1ccccc1)NC(=O)OC(C)(C)C |  |  | absorbance | 0.3 µM
CC(C)(O)c1ccc(CN2C(=O)N(Cc3ccc(C(C)(C)O)cc3)[C@H](Cc3ccccc3)[C@H](O)[C@@H](O)[C@H]2Cc2ccccc2)cc1 | RF |  |  | 0.0022 µM
CC[C@H](C)[C@H](NC(=O)[C@@H]1CCCN1C(=O)[C@H](Cc1ccccc1)NC(=O)[C@H](CC(N)=O)NC(=O)[C@H](CCC(N)=O)NC(=O)C=O)C(=O)N[C@H](C(N)=O)C(C)C |  |  | absorbance | 90 µM
O=C1N(Cc2cccc(Br)c2)[C@H]2[C@H](CS(=O)(=O)[C@H]2CCCCCO)N1Cc1cccc(Br)c1 |  |  |  | 6.9 µM
CC(=O)c1cccc(CN2C(=O)N(Cc3cccc(C(C)=O)c3)[C@H](Cc3ccccc3)[C@H](O)[C@@H](O)[C@H]2Cc2ccccc2)c1 | RF |  | fluorescence | 0.00006 µM
CC(C)[C@H](NC(=O)N(C)Cc1ccccn1)C(=O)N[C@@H](Cc1ccccc1)[C@H](O)[C@@H](O)[C@H](Cc1ccccc1)NC(=O)[C@@H](NC(=O)N(C)Cc1ccccn1)C(C)C |  |  | fluorescence | 0.000077 µM
CC(C)[C@H](NC(=O)OCc1ccccc1)C(=O)N[C@@H](Cc1ccccc1)[C@@H](O)[C@H](O)[C@H](Cc1ccccc1)NC(=O)[C@@H](NC(=O)OCc1ccccc1)C(C)C |  |  | fluorescence | 0.0011 µM
O=S1(=O)N(Cc2ccc(CO)cc2)[C@H](COc2ccccc2)[C@H](O)[C@@H](O)[C@@H](COc2ccccc2)N1Cc1ccc(CO)cc1 |  | PR-G48V L90M |  | 0.0082 µM
CC[C@H](C)[C@H](NC(=O)[C@@H]1CCCN1C(=O)[C@H](Cc1ccccc1)NC(=O)[C@H](CC(N)=O)NC(=O)C=O)C(=O)N[C@H](C(N)=O)C(C)C |  |  | absorbance | 950 µM
COC(=O)c1ccc(CN2[C@H](COc3ccccc3)[C@H](O)[C@@H](O)[C@@H](COc3ccccc3)N(Cc3ccc(C(=O)OC)cc3)S2(=O)=O)cc1 |  | PR-G48V L90M |  | 0.095 µM
O=C1N(Cc2cccc(/C(=N\O)C(F)(F)F)c2)[C@H](Cc2ccccc2)[C@H](O)[C@@H](O)[C@@H](Cc2ccccc2)N1Cc1cccc(/C(=N\O)C(F)(F)F)c1 | RF |  | fluorescence | 0.0039 µM
CC(C)(C)OC(=O)N[C@@H](Cc1ccccc1)[C@@H](O)[C@H](O)[C@H](Cc1ccccc1)NC(=O)OC(C)(C)C |  |  | absorbance | 0.038 µM
CC(C)(C)NC(=O)[C@@H]1CCCN1C(=O)[C@@H](O)[C@H](Cc1ccccc1)NC(=O)[C@H](CC(N)=O)NC(=O)c1cc2ccccc2[nH]1 | IIIB |  | HPLC | 0.018 µM
O=C1N(Cc2cccc(-c3cn[nH]n3)c2)[C@H](Cc2ccccc2)[C@H](O)[C@@H](O)[C@@H](Cc2ccccc2)N1Cc1cccc(-c2cn[nH]n2)c1 | RF |  |  | 0.00017 µM
O=S1(=O)N(Cc2cccc(I)c2)[C@H](COc2ccccc2)[C@H](O)[C@@H](O)[C@@H](COc2ccccc2)N1Cc1cccc(I)c1 |  | PR-V82A |  | 3.1 µM
O=C1N(Cc2cccc(-c3ncc[nH]3)c2)[C@H](Cc2ccccc2)[C@H](O)[C@@H](O)[C@@H](Cc2ccccc2)N1Cc1cccc(-c2ncc[nH]2)c1 | RF |  |  | 0.00016 µM
CC(C)[C@H](NC(=O)[C@H](Cc1ccccc1)NC(=O)OCc1ccccc1)C(=O)N[C@@H](Cc1ccccc1)[C@@H](O)[C@@H](O)[C@@H](Cc1ccccc1)NC(=O)[C@@H](NC(=O)[C@H](Cc1ccccc1)NC(=O)OCc1ccccc1)C(C)C |  |  | fluorescence | 0.0026 µM
CNC(=O)CN1[C@H](COc2ccccc2)[C@H](O)[C@@H](O)[C@@H](COc2ccccc2)N(CC(=O)NC)S1(=O)=O |  | PR-V82A |  | 110 µM
CC(C)[C@H](NC(=O)[C@@H](NC(=O)OCc1ccccc1)[C@@H](C)O)C(=O)N[C@@H](Cc1ccccc1)[C@@H](O)[C@H](O)[C@H](Cc1ccccc1)NC(=O)[C@@H](NC(=O)[C@@H](NC(=O)OCc1ccccc1)[C@@H](C)O)C(C)C |  |  | fluorescence | 0.0077 µM
O=C1N[C@H](Cc2ccccc2)[C@H](O)[C@@H](O)[C@@H](Cc2ccccc2)N1Cc1cccc(-c2ccn[nH]2)c1 | RF |  | fluorescence | 0.00026 µM

Repeating the first 5 entries:

{"structure": "CCCC[C@@H](CN[C@@H](CCCC)C(=O)N[C@@H](CCC(N)=O)C(=O)N[C@@H](CCCN=C(N)N)C(N)=O)NC(=O)[C@@H](NC(=O)[C@@H](NC(C)=O)[C@@H](C)O)[C@@H](C)CC", "read by": "HPLC", "result": "0.78 µM"}
{"structure": "CC(C)(C)OC(=O)N[C@@H](Cc1ccccc1)[C@H](O)[C@H](O)[C@H](Cc1ccccc1)NC(=O)OC(C)(C)C", "read by": "fluorescence", "result": "0.022 µM"}
{"structure": "O=C1N(Cc2ccc(CO)cc2)[C@H](COc2ccccc2)[C@H](O)[C@@H](O)[C@@H](COc2ccccc2)N1Cc1ccc(CO)cc1", "strain or isolate": "IIIB", "read by": "fluorescence", "result": "0.00023 µM"}
{"structure": "CC(C)[C@H](NC(=O)[C@H](CO)NC(=O)OCc1ccccc1)C(=O)N[C@@H](Cc1ccccc1)[C@@H](O)[C@H](O)[C@H](Cc1ccccc1)NC(=O)[C@@H](NC(=O)[C@H](CO)NC(=O)OCc1ccccc1)C(C)C", "read by": "fluorescence", "result": "0.00058 µM"}
{"structure": "CNC(=O)[C@@H](NC(=O)[C@H](OCc1ccccc1)[C@H](O)[C@@H](O)[C@@H](OCc1ccccc1)C(=O)N[C@H]1c2ccccc2C[C@H]1O)C(C)C", "result": "0.000054 µM"}